Earlier results as cited in article PMC3002932, “Grifonin-1: A Small HIV-1 Entry Inhibitor Derived from the Algal Lectin, Griffithsin” (PLoS ONE, 2010).

Columns and labels:
[1] = ref [24], [28]; cited from earlier work
[2] = system: proinflammatory cytokines; settings: ref [24], [28]; cited from earlier work
[3] = ref [24], [28]; cited from earlier work; remark: listed apart in the source

## griffithsin
[1]
  stability over pH and temperature range: stability over a satisfactory pH and temperature range
[2]
  release of proinflammatory cytokines: did not induce the release of proinflammatory cytokines
[3]
  toxicity: caused minimal toxicity
